{
  "source": "paper PMC8725944",
  "about": "“Design and synthesis of chromone-nitrogen mustard derivatives and evaluation of anti-breast cancer activity” (Journal of Enzyme Inhibition and Medicinal Chemistry, 2021)",
  "system": "human normal breast cell line MCF-10A",
  "assay": "CCK-8 assay, cytotoxicity to normal breast cells MCF-10A",
  "conditions": "read-out: IC50 MCF-10A, CCK-8, 72 h, mean ± SD of three experiments",
  "note": "pIC50: −log10 of the molar value.",
  "data": [
    {"smiles": "O=C(O)c1ccc(N(CCCl)CCCl)cc1", "values": [
      {"measurement": "pIC50", "result": "< 4.40"}
    ]}
  ]
}
